Results deposited as PubChem BioAssay AID504761 (Drosophila RNAi Screening Center, 2011)

- Test: 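Genome-wide fly cell screen for genes dengue virus requires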 (primary screen)
- System: D.Mel-2 cells from Drosophila
- Reagents: long dsRNA against Drosophila genes
- Challenge: infection with dengue virus type 2; dose and infection time not stated
- Measurement: 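Per well on two replicate plates, imaging gave the percent of cells positive for viral envelope protein, ranked by infection, and a nuclear count of cells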
- Scale: infection score: higher = more virus-infected cells; cell count: higher = more cells in the well
- Call rule: 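Very low infection ranking in both replicate wells (chance probability at most 0.065), then a retest showing infection dropped 1.5-fold or more at p below 0.05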
- Meaning of the calls: active = confirmed: knock-down lowers infection; inactive = not picked or not confirmed
The deposit covers about 22,000 reagents; below is an unselected part of those with a known target gene and a result. In the full data, 116 (0.52%) got an active call. 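Calls depend on retest data that are not deposited; infection was ranked per plate without normalising between plates; the unit of the infection score is not given.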 The raw values are shown without normalisation. A number with no mark means an inactive call. Reagents against one gene are numbered here. Not given: the amount of reagent, the time to read-out.

| infection score, replicate 1 | infection score, replicate 2 | cell count, replicate 1 | cell count, replicate 2 | gene knocked down | reagent |
| --- | --- | --- | --- | --- | --- |
| 5.73 | 2.87 | 6771 | 6715 | CG2059 | 1 |
| 5.02 | 5.02 | 5441 | 5632 | CG14421 | 1 |
| 4.54 | 7.03 | 6188 | 6246 | CG14421 | 2 |
| 3.44 | 1.39 | 5813 | 6194 | ABCB7 | 1 |
| 3.18 | 15 | 5728 | 5510 | Gfat2 | 1 |
| 5.97 | 4.64 | 6317 | 6248 | Gfat2 | 2 |
| 15.7 | 7.79 | 6180 | 6533 | Pen | 1 |
| 4.77 | 4.75 | 4084 | 4126 | emb | 1 |
| 1.44 | 0.77 | 5558 | 5312 | nAChRalpha1 | 1 |
| 3.29 | 2.48 | 3434 | 3831 | nAChRalpha1 | 2 |
| 1.34 (active) | 0.37 | 6585 | 5874 | nAChRalpha1 | 3 |
| 2.83 | 5.54 | 6395 | 6013 | nAChRalpha1 | 4 |
| 4.5 | 3.28 | 6446 | 6703 | Oct-TyrR | 1 |
| 12.3 | 11.7 | 3093 | 5211 | ppan | 1 |
| 7.79 | 18 | 1822 | 3307 | ppan | 2 |
| 9.29 | 8.98 | 5942 | 5679 | Npc2h | 1 |
| 14.6 | 11.7 | 5887 | 6263 | da | 1 |
| 1.4 | 0.92 | 7052 | 6662 | RhoGAP16F | 1 |
| 1.79 | 9.32 | 6542 | 6147 | rumpel | 1 |
| 1.35 | 1.06 | 5462 | 6109 | CG3815 | 1 |
| 2.78 | 1.94 | 6079 | 6029 | CG3815 | 2 |
| 5 | 3.94 | 6405 | 6649 | CG9837 | 1 |
| 19.4 | 7.4 | 2469 | 6928 | CG9837 | 2 |
| 1.68 | 9.14 | 6890 | 6643 | CG10029 | 1 |
| 11.6 | 22 | 4511 | 5780 | QIL1 | 1 |
| 15.3 | 7.15 | 6127 | 6505 | CG5888 | 1 |
| 13.3 | 8.89 | 6397 | 6590 | CG5888 | 2 |
| 6.11 | 8.03 | 5827 | 5669 | Syx8 | 1 |
| 1.79 | 10.6 | 6027 | 5343 | Syx8 | 2 |
| 16.8 | 13.5 | 6603 | 6862 | Syx8 | 3 |
| 5.51 | 6.39 | 6793 | 6351 | CG12895 | 1 |
| 4.83 | 11.1 | 6086 | 5971 | CG12895 | 2 |
| 15.9 | 22.5 | 6369 | 6126 | l(2)k14505 | 1 |
| 12.5 | 10.9 | 5610 | 6650 | CG10510 | 1 |
| 6.86 | 14.5 | 6443 | 6179 | cona | 1 |
| 4.39 | 7.08 | 6768 | 6925 | Ugt304A1 | 1 |
| 1.47 | 7.36 | 6042 | 6387 | Ugt304A1 | 2 |
| 3.23 | 3.08 | 6972 | 6829 | Paics | 1 |
| 1.72 | 10.5 | 6409 | 6452 | CG1998 | 1 |
| 5.43 | 17.8 | 7058 | 7147 | CG5265 | 1 |
| 4.53 | 5.63 | 6505 | 6147 | CG6220 | 1 |
| 3.74 | 19.4 | 6410 | 5652 | Adgf-B | 1 |
| 2.07 | 2.75 | 6246 | 6392 | Adgf-B | 2 |
| 9.79 | 0.97 | 6455 | 6794 | CG42258 | 1 |
| 1.58 | 10.1 | 7046 | 3014 | CG42258 | 2 |
| 12.2 | 38 | 5615 | 5687 | CG42258 | 3 |
| 12.3 | 7.73 | 1111 | 5627 | CG42258 | 4 |
| 32.8 | 21.1 | 5788 | 6132 | CG1620 | 1 |
| 17.2 | 30.8 | 4705 | 4279 | CG1620 | 2 |
| 5.18 | 1.52 | 6313 | 6646 | raptor | 1 |
| 35.1 | 28.2 | 5747 | 4666 | CG18631 (retired record) | 1 |
| 4.94 | 3.36 | 5954 | 6188 | CG18631 (retired record) | 2 |
| 3.62 | 24.7 | 7145 | 6396 | knrl | 1 |
| – | 16.5 | 367 | 2635 | knrl | 2 |
| 0.97 | 2.45 | 6257 | 6658 | CG13737 | 1 |
| 20.5 | 8.45 | 5571 | 6062 | CG4287 | 1 |
| 9.62 | 3.56 | 5499 | 5985 | CG4287 | 2 |
| 4.96 | 6.4 | 6457 | 6114 | unk | 1 |
| 7.44 | 1.5 | 3454 | 532 | unk | 2 |
| 1.17 | 0.84 | 6650 | 6542 | CG34348 | 1 |
| 1.71 | 0.61 | 6788 | 6554 | CG34348 | 2 |
| 12.4 | 15.1 | 3516 | 6306 | Usf | 1 |
| 0.88 | 0.8 | 6138 | 6153 | Usf | 2 |
| 3.95 | 0.58 | 5853 | 6389 | CG12547 | 1 |
| 1.85 | 4.05 | 6271 | 5557 | Mpcp2 | 1 |
| 9.62 | – | 6455 | 279 | Rpp14b | 1 |
| 15.3 | 33.4 | 6143 | 5241 | CG32708 | 1 |
| 30.7 | 4.42 | 3327 | 906 | CG32708 | 2 |
| 5.6 | 19.6 | 6607 | 6886 | fs(1)h | 1 |
| 21.2 | 20.3 | 1645 | 4271 | fs(1)h | 2 |
| 2.68 | 2.41 | 5966 | 6307 | frj | 1 |
| 13.7 | 18.3 | 5257 | 4973 | UQCR-C1 | 1 |
| 3.98 | 31.6 | 6179 | 5951 | CG32160 (retired record) | 1 |
| 1.94 | 10.3 | 6918 | 6620 | Naa80 | 1 |
| 16.2 | 20.7 | 5757 | 5723 | Naa80 | 2 |

Entries listed above marked active (1):
| infection score, replicate 1 | infection score, replicate 2 | cell count, replicate 1 | cell count, replicate 2 | gene knocked down | reagent |
| --- | --- | --- | --- | --- | --- |
| 1.34 (active) | 0.37 | 6585 | 5874 | nAChRalpha1 | 3 |
